Mtb glucose medium: 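Phenotypic screen: M. tuberculosis growth, glucose 7H9 medium, 3 days; the read-out is not stated. Concentration: 50 µM. Direction is inferred from retests: higher values go with more growth inhibition. Size under these conditions: about 69,000 compounds, about 760 of them at 50% or above in at least one test.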
Mtb cholesterol medium: 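Whole-cell growth test on Mycobacterium tuberculosis, read after 4 days in a medium based on cholesterol and the lipid DPPC; the read-out is not stated. Compounds at 50 µM. Direction is inferred from retests: higher values go with more growth inhibition. Of about 69,000 compounds tested this way, about 370 (0.54%) reached 50% or more in at least one test.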

Values are the deposited “Percent Effect”, in %. How 0% and 100% were set is not recorded. Most values in the screen are low, and negative values occur. Many other results are left out here, so strong results are more common than in the screen. Two or more numbers in one place are separate tests of the same structure; such repeats can differ widely. A dash means the value is not listed here; it may have been measured.

compound,Mtb glucose medium,Mtb cholesterol medium
CC(C)N1CCC(CC(=O)NC[C@H]2CCc3ccccc3O2)CC1,-18.07 and 6.247,0.7685
CC1(c2ccccc2)CCCN(Cc2nnc(-c3cccnc3)o2)C1 (stereo not shown),51.81,-
CC(CNS(C)(=O)=O)c1ccc(F)c(F)c1 (stereo not shown),-6.709 and 16.53,-4.576
COc1ccccc1-c1ncc(CN2CCCC(CCC(N)=O)C2)s1 (stereo not shown),30.79,-
CCOc1cccc(C(=O)NCCC(=O)Nc2ccncc2)c1,-5.317 and -2.146,-
O=C(NCC1(N2CCOCC2)CCSC1)Nc1ccc(F)cc1 (stereo not shown),-25.38,-
Cl.O=C(CCC1CCCC1)N1CCCC(c2ncc3c(n2)CCNC3)C1 (stereo not shown),53.33,-
CCC1CN(C(=O)c2csc3nc(-c4ccc(Cl)cc4)cn23)CCN1 (stereo not shown),73,57.98
O=C(c1cc(Cl)c[nH]1)N1CCN(CCc2ccccn2)CC1,19.26,-
CCN(C)CC(=O)N1CCC(c2cc(N3CCOCC3)nc(C)n2)CC1,-0.9815,-
Cc1noc(NC(=O)c2ccccc2)n1,-14.5,-9.606
Cn1nnc(NCc2ccccc2OCc2ccc(Cl)cc2)n1,44.94,-
Cc1ccc(C(=O)Nc2nc(C)no2)cc1,23.52,-6.459
NC(=O)C1=NC2=NS(=O)(=O)c3ccccc3N2N1Cc1ccccc1Cl,-20.59,16.33
CC(C)CC(CO)NC(=O)NCc1csc(N(C)C)n1 (stereo not shown),3.268 and 20.56,12.4
COCCCSc1ccc(NCc2scnc2C)cc1,59.98 and 40.83,-
COc1ccccc1-c1ncc(CN2C[C@H](O)[C@@H](N3CCCC3)C2)s1,36.85,-
CN1CCC(c2cccc(Cc3ccccc3)n2)CC1,27.16,-
CN(Cc1ccc(F)cc1)C(=O)Cn1nc(-c2ccc(F)cc2)oc1=O,-,-18.34
CN(C)C(=O)CN1CCCC1c1nc(N)ncc1-c1ccc(F)cc1 (stereo not shown),12.72,-
CC(C(N)=O)n1nc(-c2cccs2)cc(N)c1=O (stereo not shown),7.542,-
CC(C)Cc1cc(NC(=O)c2ccc[nH]2)n(C)n1,1.639,-
CC(C)OCCCNC(=O)CS(=O)(=O)Cc1cccc(Cl)c1,9.604,-7.288
COCCCN(C)C(=O)c1nnn(-c2ccccc2Cl)c1C,3.637,7.162
Fc1ccc(CN2CCCN(Cc3cscn3)CC2)cc1,18.07,-
Cc1ccc(CCCC(=O)N2CC(=O)Nc3cccnc32)s1,2.641 and 7.002,-0.3991
Cc1cnn(CC2CN(CCS(=O)(=O)C(F)(F)F)CCO2)c1 (stereo not shown),-42.14,-
COc1ccc(CNc2ncc(-c3cc(C)no3)c(C(C)C)n2)cc1,18.9,61.07
CCN1CCN(C(=O)C2CCOC2)c2ccccc21 (stereo not shown),-16.02,-
CN1C[C@@H](N)C[C@H]1C(=O)N1CCC(Cc2ccc(F)cc2)CC1,18.83,-
Cc1cc(=O)[nH]c(SC(C)C(=O)N2CCCN(C3CCCC3)CC2)n1 (stereo not shown),-8.551,-
CC(C)c1nsc(NC2CCOC3(CCCC3)C2)n1 (stereo not shown),-,53.06
Cc1ccc(CNCC2Cn3nnc(-c4cccc(F)c4)c3CO2)o1.O=C(O)C(F)(F)F (stereo not shown),52.68 and 37.98,-
Cc1cc(C(=O)N2CCCC(c3nccn3Cc3cscn3)C2)on1 (stereo not shown),52.72,-
COc1ccc(N2Cc3nc(=O)n(C(C)C)n3C2=O)cc1,-13.18,-
Cc1csc(CNC(=O)NCc2ccc3c(c2)OCCO3)n1,4.6,4.005
Cc1nc(C2CCCN(C(=O)c3cccc(S(C)(=O)=O)c3)C2)no1 (stereo not shown),26.47,-
COCCC1(CNC(=O)NCC2CCCN(C)C2)CCCC1 (stereo not shown),-,-5.07
CNC(=O)c1ncn2c1CN(CCC(C)C)S(=O)(=O)c1ccccc1-2,-,-7.584
CC(Oc1ccc2c(c1)OCO2)C(=O)N1CCC(N2CCOCC2)CC1 (stereo not shown),-6.208,-
Cc1ccc2c(c1)N(C(=O)c1nccnc1N)CC(C)O2 (stereo not shown),19,-
c1ccc(CCc2n[nH]c(C3CCOC3)n2)cc1 (stereo not shown),-,2.476
Cc1ccc(OCCN2CCC(c3ccnn3CCO)CC2)cc1,4.483,-
O=C(c1cnc(O)cc1O)N1CCCC(CCc2ccccc2F)C1 (stereo not shown),-29.26 and -3.562,-
O=C(NCC1CCOC1)c1csc(-c2cccc(Cl)c2)n1 (stereo not shown),12.86,-
CN1CCOC(CNC(=O)Cc2ccccc2F)C1 (stereo not shown),-6.099,-
CCO[C@@H]1CO[C@@]2(CCN(Cc3ccc4c(c3)OCO4)C2)C1.O=C(O)C(F)(F)F,-,12.96
Cc1cc2nc(C(C)C)cc(NCCc3cccn3C)n2n1,53.2,-
CCNC(=O)N1CC(c2nc(Cc3ccccc3)no2)C1,6.984,-3.115
O=C(Cn1cc(I)cn1)N1CCCC1,20.05,10.03
COc1ccc(F)c(CN(CCCn2ccnc2)Cc2ccc(C)s2)c1.O=C(O)CC(O)(CC(=O)O)C(=O)O,-4.681,-
CC(C)Cn1ccc2c(NC(=O)c3n[nH]c4c3CCC4)cccc21,23.44,-
N#Cc1ccc(NCc2cccc(OCC3CCCO3)c2)nc1 (stereo not shown),34.32,-
CC(NC(=O)Cn1cccnc1=O)c1ccc(C(F)(F)F)cc1 (stereo not shown),-,8.743 and -181
N#Cc1cccnc1OC1CCN(C(=O)c2cc(C3CC3)on2)CC1,18.75 and 21.9,-
COc1cccc(CNc2cnn(C)c(=O)c2Cl)c1,-,-20.04
CC1=C(C(=O)N(C)Cc2noc3c2CCCC3)C(C)NC(=O)N1 (stereo not shown),-,-15.59 and 0.5571
Cc1ccsc1CN(c1nc(CCN)nc2ccccc12)C1CC1,52.79,-
COc1ccccc1OC1CN(C(=O)Cc2c(C)nc3ccccn23)C1,7.919,-
Fc1ccc(-c2noc([C@@H]3Cc4nc[nH]c4CN3)n2)cc1,5.683 and -3.402,-
CCOC(=O)CNC(=O)N1CCOC(CCc2ccccc2)C1 (stereo not shown),-13.37,-
COCc1ccc(C(=O)N2CCCN(c3ccc(F)cc3)CC2)s1,9.309,24.41
Cc1cc(F)ccc1CN1CCCC(O)(CN2CCCC2)C1 (stereo not shown),63.68,-
c1cnc(N2CCOCC3(CCN(c4cnccn4)CC3)C2)nc1,-3.731,-
CCC(CO)NCc1ccc(-c2ccc(Br)cc2)o1.Cl (stereo not shown),48.03 and 58.01,41.93
COc1ccc(CN2CCn3cccc3C2C)cc1F (stereo not shown),16.06,-
Cc1ccc(-c2noc([C@@H]3Cc4nc[nH]c4CN3)n2)cc1,53.92 and 37.27,-
COCCn1ccc2c(NC(=O)c3n[nH]c4c3CCCC4)cccc21,46.96,-

Measurements from “University of Dundee, Small-Polar-MMV Screening Library” (2021), ChEMBL document CHEMBL3988442.